Results on 5 compounds are retold here after publication PMC10893061, “Novel 2,5-Diketopiperazines with In Vitro Activities against Protozoan Parasites of Tropical Diseases” (Pharmaceuticals, 2024).

For data set [1], the system named is Leishmania infantum (MHOM/BR/1974/PP75) in THP-1 macrophages. The data set can be described thus: Anti-Leishmania infantum activity assay (infected THP-1 macrophages, red fluorescence). In kind it is cell-based. The settings on record: CC50 (THP-1)/IC50 (L. infantum). Here is the method:
Their half-maximum cytotoxic concentrations (CC50) and their selectivity indices (SI), obtained as the ratio of the cytotoxic concentration against the bioactive concentration are shown in Table 2. Theoretically, the higher the SI value, the greater the effectiveness for the target and the lower the toxicity of the compound, characterizing a potentially safe and selective drug.
Cells derived from the human monocytic strain THP-1 were cultured in complete Rowell Park Memorial Institute (RPMI)-1640 medium (supplemented with 10% fetal bovine serum, 100 U/mL penicillin, and 100 μg/mL streptomycin). Monocytes were differentiated into macrophages by the addition of 20 ng/mL phorbol myristate acetate (PMA). […] The IC50 values were determined by non-linear regression using a variable slope model (log[concentration] vs. growth inhibition) with the GraphPad Prism v8.2.0 (Boston, MA, USA) software. Controls with uninfected cells, untreated infected cells, infected cells treated with amphotericin B at 0.25 μM (positive control) or DMSO 1% were used. Quadruplicates were run in the same plate, and the experiments were repeated at least once.

Data set [2] relates to P. falciparum chloroquine-resistant and mefloquine-sensitive W2 clone. The data set can be described thus: Anti-Plasmodium falciparum activity assay (SYBR, erythrocytic asexual stages). The note with it: CC50 (BGM)/IC50 (P. falciparum). Type of data set: cell-based. As for the experimental part: In vitro assay with P. falciparum culture were performed as described previously. […] The activity was measured using the SYBR assay with the parasite suspension (0.5% parasitemia and 2% hematocrit) with minor modifications. The test compounds, in serial dilutions, were incubated in “U” bottom 96-wells plates. After 48 h at 37 °C, the culture supernatant was removed and replaced by 100 µL of lysis buffer solution [Tris (20 mM; pH 7.5), EDTA (5 mM), saponin (0.008%; wt/vol), and Triton X 100 (0.08%; vol/vol)] followed by addition of 0.2 µL/mL SYBR Safe (Sigma-Aldrich, Carlsbad, CA, USA). The plate content was transferred to a flat bottom plate and incubated in the dark for 30 min. The plate was read in a fluorometer (Synergy H4 Hibrid Reader, Biotek) with excitation at 485 nm and 535 nm of emission. In all tests, the compound activities were expressed by the 50% inhibitory concentration of the parasite growth (IC50) when compared to the drug-free controls and estimated using the curve-fitting software Origin 8.0 (OriginLab Corporation, Northampton, MA, USA).

“And” between values parts separate entries of the source, which are not always exact repeats. Equal values may be shown once.

`CC(=O)Nc1ccc(C2C(=O)N(c3ccc(Cl)cc3)CC(=O)N2c2ccccc2)cc1` (centres unmarked) [Compound 7]: in data set [1], the SI is > 40 and 42.
For the compound `O=C1C(c2ccccc2F)N(c2ccc(Br)cc2)C(=O)CN1c1ccc(Cl)cc1` (centres unmarked) [Compound 19], in data set [2], the SI was > 10 and 20.
Turning to `O=C1C(c2ccc(O)cc2)N(c2ccccc2)C(=O)CN1c1ccc(Cl)cc1` (centres unmarked) [Compound 14], the SI in data set [1] was > 50 and > 40 and 74.
Consider `O=C1C(c2ccccc2F)N(c2ccc(Cl)cc2)C(=O)CN1c1ccc(Cl)cc1` (centres unmarked) [Compound 17], for which the SI in data set [2] was > 10 and 15.
In data set [1], `C[C@@H]1[C@H](O)[C@@H](C)/C=C/C=C/C=C/C=C/C=C/C=C/C=C/[C@H](O[C@@H]2O[C@H](C)[C@@H](O)[C@H](N)[C@@H]2O)C[C@@H]2O[C@](O)(C[C@@H](O)C[C@@H](O)[C@H](O)CC[C@@H](O)C[C@@H](O)CC(=O)O[C@H]1C)C[C@H](O)[C@H]2C(=O)O` [Amphotericin B, reference compound] returned an SI of 1610.
